Pooled drug test results. Numbers come from NIAID ChemDB, via PubChem.

Common to all: whole-cell or culture tests; agent: Candida albicans; read-out: Geometric mean MIC

Rows are shuffled and stem from different studies.

compound,strain,result
COc1ccc(C(Cc2cccc(F)c2)n2ccnc2)cc1,34 strains,151.2 µg/mL
CC[C@@H]([C@H](C)O)n1ncn(-c2ccc(N3CCN(c4ccc(OC[C@@H]5CO[C@@](Cn6cncn6)(c6ccc(F)cc6F)C5)cc4)CC3)cc2)c1=O,17 isolates fluconazole-susceptible,0.015 µg/mL
CCC(C)n1ncn(-c2ccc(N3CCN(c4ccc(OC[C@H]5CO[C@](Cn6cncn6)(c6ccc(Cl)cc6Cl)O5)cc4)CC3)cc2)c1=O,10 strains (fluconazole-resistant),0.71 µg/mL
C[C@@H]([C@H](N)C(=O)N[C@H](C(=O)O)[C@H]1O[C@@H](n2ccc(=O)[nH]c2=O)[C@H](O)[C@@H]1O)[C@H](O)c1ccc(O)cn1,36 isolates,4.7 µg/mL
C[C@@H](c1ncncc1F)[C@](O)(Cn1cncn1)c1ccc(F)cc1F,8 strains,0.112 µg/mL
Cc1ccc(CNC(=O)c2ccccc2O)cc1,ATCC 44859,412 µM
COc1ccc(C(Cc2ccccc2[N+](=O)[O-])n2ccnc2)cc1,34 strains,296 µg/mL
CCC(C)n1ncn(-c2ccc(N3CCN(c4ccc(OC[C@H]5CO[C@](Cn6cncn6)(c6ccc(Cl)cc6Cl)O5)cc4)CC3)cc2)c1=O,12 isolates fluconazole-resistant,7.127 µg/mL
COc1ccc(C(Cc2ccccc2F)n2ccnc2)cc1,34 strains,122 µg/mL
N=C(N)c1ccc2nc(-c3ccc(-c4nc5ccc(C(=N)N)cc5[nH]4)[nH]3)[nH]c2c1,21 strains,0.64 µg/mL
Nc1[nH]c(=O)ncc1F,12 isolates fluconazole-resistant,0.454 µg/mL
COc1ccc([C@@H](Cc2ccc(Cl)cc2Cl)n2ccnc2)cc1,34 strains,3.5 µg/mL
Clc1cc(Cl)c2c(c1)CCc1ccccc1C2n1ccnc1,35 isolates,0.05 µg/mL
COc1ccc(C(Cc2ccc(N)cc2)n2ccnc2)cc1,34 strains,2.98 µg/mL
CCCCCOc1ccc(-c2ccc(-c3ccc(C(=O)N[C@H]4C[C@@H](O)[C@@H](O)NC(=O)[C@@H]5[C@@H](O)[C@@H](C)CN5C(=O)[C@H]([C@H](C)O)NC(=O)[C@H]([C@H](O)[C@@H](O)c5ccc(O)cc5)NC(=O)[C@@H]5C[C@@H](O)CN5C(=O)[C@H]([C@H](C)O)NC4=O)cc3)cc2)cc1,42 isolates,0.0029 µg/mL

2 of the rows above, restated:

compound	strain	result
N=C(N)c1ccc2nc(-c3ccc(-c4nc5ccc(C(=N)N)cc5[nH]4)[nH]3)[nH]c2c1	21 strains	0.64 µg/mL
CC[C@@H]([C@H](C)O)n1ncn(-c2ccc(N3CCN(c4ccc(OC[C@@H]5CO[C@@](Cn6cncn6)(c6ccc(F)cc6F)C5)cc4)CC3)cc2)c1=O	17 isolates fluconazole-susceptible	0.015 µg/mL